According to paper doi:10.1101/2023.12.10.570962 (bioRxiv, 2023):

Target: the molecule itself
Assay: solution NMR (1H-15N HSQC, NOESY, ROESY)

Protein: EAGPQGLPGPKGDRGEAGP [Lcl-CLR peptide (Ac-EAGPQGLPGPKGDRGEAGP-NH2)]
- stoichiometry N: 3
